# PSTVd stem 3 mutant pool in Nicotiana benthamiana

Values reported by Wu et al. 2024 (doi:10.1371/journal.ppat.1012142).

PSTVd intermediate strain, stem 3: wild type GUGGUUCCGGAACCGC, pool pattern GUGGUUCCGNANNCNN; upper and lower strand joined, each 5' to 3', the first 8 letters being the upper strand.

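Three N. benthamiana plants were inoculated with the whole mutant pool. Samples came from the inoculated region at 5 days, the leaf margin at 10 and upper systemic leaves at 12.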

Values are reads per thousand in the sample; higher means more abundant, 0 means not found.
Each site shows the three plants.
"Pool" is the share in the plasmid pool used as inoculum, on the same scale.
The inoculated region was read from the minus strand, the other sites from the plus strand.
With 27,691-54,225 reads a sample, very low values are single reads.

sequence,pool,inoculated region,leaf margin,systemic leaves
GUGGGUCCGUAGUCUG,0.0308,0 0 0,0 0 0,0 0 0
GUGGGUCCGUAUACCU,0.0154,0 0 0,0 0 0,0 0 0
GUGGGUCCGUAUCCUG,0.0154,0 0 0,0 0 0,0 0 0
GUGGGUCCGUAUUCCA,0.0154,0 0 0,0 0 0,0 0 0
GUGGGUCCGUAUUCUU,0.0154,0.0267 0 0,0 0 0,0 0 0
GUGGUACCGGCACCGC,0.0154,0 0 0,0 0 0,0 0 0
GUGGUACCGUAUUCGU,0.0154,0 0 0,0 0 0,0 0 0
GUGGUCCCGCAGACGU,0.0154,0 0 0,0 0 0,0 0 0
GUGGUCCCGGAGCCCA,0.0154,0 0 0,0 0 0,0 0 0
GUGGUGCCGACGCCAA,0.0154,0 0 0,0 0 0,0 0 0
GUGGUUACGAACCCUG,0.0154,0 0 0,0 0 0,0 0 0
GUGGUUACGCAAUCGA,0.0154,0 0 0,0 0 0,0 0 0
GUGGUUACGCAGACUU,0.0154,0 0 0,0 0 0,0 0 0
GUGGUUACGGAACCGA,0.0154,0.0267 0.0216 0,0 0 0,0 0.0184 0
GUGGUUCAGAAGCCUG,0.0154,0 0 0,0 0 0,0 0 0
GUGGUUCAGAAGUCUC,0.0154,0.0267 0 0,0 0 0,0 0 0
GUGGUUCAGCACGCGG,0.0154,0 0 0,0 0 0,0 0 0
GUGGUUCAGGAACCGC,0.0154,0.133 0.216 0.108,0.878 0.859 0.794,0.746 0.572 0.462
GUGGUUCAGGAGCCAA,0.0154,0 0 0,0 0 0,0 0 0
GUGGUUCAGGAGCCAC,0.0154,0 0 0,0 0 0,0 0 0
GUGGUUCAGGAUGCAC,0.0154,0 0 0,0 0 0,0 0 0
GUGGUUCAGGCACCGC,0.0154,0 0 0,0 0 0,0 0 0
GUGGUUCAGUAAGCCC,0.0154,0 0 0,0 0 0,0 0 0
GUGGUUCAGUAAGCCU,0.0308,0 0 0,0 0 0,0 0 0
GUGGUUCAGUACCCCG,0.0154,0 0 0,0 0 0,0 0 0
GUGGUUCAGUACCCUA,0.0154,0 0 0,0 0 0,0 0 0
GUGGUUCAGUAUGCAA,0.0154,0 0 0,0 0 0,0 0 0
GUGGUUCAGUAUGCCU,0.0154,0 0 0,0 0 0,0 0 0
GUGGUUCCACAGUUGG,0.816,0.400 0.367 0.838,1.73 0.763 0.361,1.19 1.24 0.608
GUGGUUCCACAUACGA,0.0462,0 0 0,0 0 0,0 0 0
GUGGUUCCAGAACCGC,0.0923,0.213 0.194 0.0811,0.0850 0.191 0.0722,0.224 0.166 0.316
GUGGUUCCAGAGGCUG,0.0154,0.506 0.388 0.730,0.283 0 0.361,0 0 0
GUGGUUCCAGUUGGUU,0.339,0.800 1.42 0.730,0.283 0 0.614,1.42 2.73 1.92
GUGGUUCCCACGCGUA,0.369,0.666 0.561 0.919,0.255 0 0.144,0 0 0
GUGGUUCCCAGGCGUA,0.0154,0.267 0.302 0.540,0 0 0,0 0 0
GUGGUUCCCGAACCGC,0.0154,0.0800 0.0216 0.189,0.0850 0.127 0.144,0.205 0.184 0.170
GUGGUUCCCUAAGUUG,0.400,0.107 0.280 0.189,0 0 0,0 0 0
GUGGUUCCGAAAACAA,0.739,0.720 0.819 1.05,0 0 0.361,0 0 0
GUGGUUCCGAAAACAC,2.28,1.57 1.38 1.65,0 0.0318 0.0361,0.354 0.0184 0
GUGGUUCCGAAAACAG,0.677,0.693 0.668 0.865,0 0.0318 0.325,0 0 0
GUGGUUCCGAAAACAU,1.06,0.853 0.992 0.973,1.61 1.02 0.289,1.27 1.35 0.705
GUGGUUCCGAAAACCA,0.769,0.293 0.367 0.189,0 0 0,0 0 0
GUGGUUCCGAAAACCC,1.06,0.586 0.496 0.622,0 0 0,0.0932 0.0184 0
GUGGUUCCGAAAACCG,0.431,0.293 0.216 0.135,0 0 0,0 0 0
GUGGUUCCGAAAACCU,0.862,0.826 0.668 0.594,0 0.0318 0.0361,0.0186 0 0
GUGGUUCCGAAAACGA,0.785,0.373 0.474 0.243,0 0.0636 0.0361,0 0 0
GUGGUUCCGAAAACGC,0.616,0.400 0.367 0.324,0 0 0,0 0 0
GUGGUUCCGAAAACGG,0.831,0.267 0.431 0.189,0 0 0,0 0 0

4 of these entries, quoted again:

sequence,pool,inoculated region,leaf margin,systemic leaves
GUGGUUCCACAGUUGG,0.816,0.400 0.367 0.838,1.73 0.763 0.361,1.19 1.24 0.608
GUGGUACCGGCACCGC,0.0154,0 0 0,0 0 0,0 0 0
GUGGUUACGCAAUCGA,0.0154,0 0 0,0 0 0,0 0 0
GUGGUUCCCUAAGUUG,0.400,0.107 0.280 0.189,0 0 0,0 0 0

Sequences that differ at fixed positions probably stem from PCR or sequencing errors, and defective variants can be carried along by functional ones.
Wild type was 17.3 per thousand in the pool and the most common sequence in every sample (inoculated region 330, 345, 235; leaf margin 794, 766, 816; systemic leaves 830, 792, 869).